In US9868772B2 (INDIANA UNIVERSITY RESEARCH AND TECHNOLOGY CORPORATION, priority 2012, dated 2018):

Test: general procedure: Boc solid-phase peptide synthesis; MBHA resin, 100-180 mesh, 1% DVB, loading 0.7-1.0 mmol/g (Midwest Biotech); DEPBT/DIEA single couplings; DIC for acylation
Conditions: whole synthesis; for final HPLC purity: analytical HPLC, UV 214 or 220 nm, scale of the general procedure 0.2 mmole

Substance	final HPLC purity	isolated mass (scale 0.2 mmole)
HaibQGTFTSDYSKYLDERAAQDFVQWLLDGGPSSGAPPPSK(Cys(SH) γE-C16)G-amide	HPLC purity of 90%+	–
HaibQGTFTSDYSKYLDERAAQDFVQWLLDGGPSSGAPPPSC-amide	95% purity	79 mg
